# Data as given in PubChem BioAssay AID720518 (National Center for Advancing Translational Sciences (NCATS), 2013).
# The entries are a selection whose mix differs from that of the whole data set. Inconclusive results are not listed. Calls of active or inactive are those of the source. The call rests on the fitted dose curve.
# Experiment: qHTS for Inhibitors of Cell Surface uPA Generation: Wild-type Protective Antigen (WT-PrAg) Counterscreen for Cherry-picked Compounds; further: 0% is about no effect
# Settings: cells, WT protective antigen toxicity counterscreen; at 115 µM (top of the series)
compound,measurement,value
CCN(CC)CCCOC(=O)C(O)(c1ccccc1)c1ccccc1,activity (protection),inactive: 5.86%
